Test results as given in patent US20100184727A1, “TREATMENT OF EXCESS SEBUM PRODUCTION” (SUMMIT (CAMBRIDGE) LIMITED, priority 2006, published 2010).

Tested on: sebum production
Assay: Sebum production study in healthy male volunteers (Sebumeter)
Assay type: in vivo
Details: mixed effects regression, subject as random effect
Experimental: The study examined the effects of oxybutynin on sebum production in 9 healthy male volunteers. This was double-blind, randomised, placebo-controlled dose study
The subjects were assessed on each dosing occasion for sebum production pre-dose and 1 h, 2.5 h, 4 h and 6 h post-dose. Skin sebum excretion rates were determined using a Sebumeter® (Optical measurement of sebum excretion using opalescent film imprint, 2006, Handbook of non-invasive methods and the skin, Second Edition). Vital signs were recorded at specified times during each study period and adverse events were reported throughout.
For each subject, the maximum % reduction in sebum production compared to placebo was calculated for each dose level. Using this information, a mixed effects regression analysis of the % reduction in sebum versus dose with subject as a random effect was performed.

SMILES: CCN(CC)CC#CCOC(=O)C(O)(c1ccccc1)C1CCCCC1 (stereo not shown) [oxybutynin]
- Slope (mixed model regression of % reduction in sebum versus dose): −10.07
